A mixed list of measured activities; the numbers were collected in NIAID ChemDB.

Common to all: tests in culture; agent: Hepatitis C virus; read by: replicon; read-out: EC50

a–b is a range or a potency band. Rows are shuffled and stem from different studies. Blank or dashed fields: not listed here. ECn is the concentration giving n% inhibition of infection, replication or growth.

SMILES | cells | strain or isolate | result
CCc1cc2c(C(=O)NC)c(-c3ccc(F)cc3)oc2cc1NS(C)(=O)=O | Huh7 |  | <10 µM
CCOc1nc(N)nc2ccc(-c3ccc(NS(C)(=O)=O)cc3)nc12 | Huh7 |  | >1 µM
O=C(O)c1ccc2c(C3CCCCC3)c3n(c2c1)CC(=O)N3c1ccccc1 | Huh7 |  | >10 µM
CNC(=O)c1c(-c2ccc(F)cc2)oc2cc(N(C)S(C)(=O)=O)c(OCc3ccc(C(=O)O)c(O)c3)cc12 | Huh7 |  | <10 µM
O=C(O)/C=C/c1ccc(NC(=O)C2(NC(=O)c3ccc4c(C5CCCCC5)c5n(c4c3)CC/C=C\Nc3ccccc3-5)CCCC2)cc1 | Huh7 |  | 0.01–1 µM
CNC(=O)c1c(-c2ccc(F)cc2)oc2cc(S(=O)(=O)N3CCSCC3)c(OC(C)C)cc12 | Huh7 |  | <1 µM
COC(=O)/C=C/c1ccc(NC(=O)C2(NC(=O)c3ccc4c(C5CCCCC5)c5n(c4c3)CCCc3[nH]cnc3-5)CCCC2)cc1 | Huh7 |  | 1–10 µM
CCOc1nc(NCc2ccc(S(N)(=O)=O)cc2)nc2ccc(-c3ccc(NC(=O)C4(O)CC4)cc3)nc12 |  |  | <0.1 µM
CNC(=O)c1c(-c2ccc(F)cc2)oc2cc(N(C)S(C)(=O)=O)c(OCc3ccc(S(C)(=O)=O)cc3)cc12 | Huh7 |  | <1 µM
O=C(NC1(C(=O)O)CCCCC1)c1ccc2c(C3CCCCC3)c3n(c2c1)CC=Cc1ccccc1-3 | Huh7 |  | 1–10 µM
CCOc1nc(N)nc2ccc(-c3ccc(NC(=O)[C@H](C)N)c(F)c3)nc12 | Huh7 |  | <0.3 µM
CCCOc1cc2c(C(=O)NC)c(-c3ccc(F)cc3)oc2cc1N(CCC)S(C)(=O)=O | Huh7 |  | <1 µM
CS(=O)(=O)NC(=O)c1ccc2c(C3CCCCC3)c3n(c2c1)CC(C(=O)N1CCOCC1)=Cc1ccccc1-3 | Huh7 |  | 0.01–1 µM
NC(=O)COc1ccc2c(c1)S(=O)(=O)N=C(c1c(O)c3cc(F)ccc3n(CCC3CC3)c1=O)N2 |  | 1a 45996 | 0.97 µM
CCOc1nc(NCc2ccc(F)cc2)nc2ccc(-c3ccc(NC(=O)[C@@H]4CCCN4)cc3)nc12 |  |  | <0.1 µM
CCOC(=O)/C=C/c1ccc(NC(=O)C2(NC(=O)c3ccc4c(C5CCCCC5)c5n(c4c3)CCNc3ccccc3-5)CCCC2)cc1 | Huh7 |  | 0.01–1 µM
N#Cc1cc(-c2ccc3nc(NCc4ccc(S(N)(=O)=O)cc4)nc(NCC(F)(F)F)c3n2)ccn1 |  |  | <0.1 µM
CNC(=O)c1c(-c2ccc(F)cc2)oc2cc(N(CS(C)(=O)=O)c3cscn3)c(OC)cc12 | Huh7 |  | <1 µM
CCOc1nc(N)nc2ccc(-c3ccc(NC(=O)C4(O)CC4)cc3)nc12 | Huh7 |  | <0.3 µM
O=C(O)/C=C/c1ccc(NC(=O)C2(NC(=O)c3ccc4c(C5CCCCC5)c5n(c4c3)CCCc3ocnc3-5)CCCC2)cc1 | Huh7 |  | 0.01–1 µM
CN(C)C(=O)c1ccc(CNc2nc(NCC(F)(F)F)c3nc(-c4ccc(F)cc4)ccc3n2)cc1 |  |  | <0.1 µM
CCCOc1cc2c(C(=O)NC)c(-c3ccc(F)cc3)oc2cc1N(C)S(C)(=O)=O | Huh7 |  | <1 µM

2 of the rows above, restated:

SMILES,cells,strain or isolate,result
CNC(=O)c1c(-c2ccc(F)cc2)oc2cc(N(CS(C)(=O)=O)c3cscn3)c(OC)cc12,Huh7,,<1 µM
CNC(=O)c1c(-c2ccc(F)cc2)oc2cc(S(=O)(=O)N3CCSCC3)c(OC(C)C)cc12,Huh7,,<1 µM